Results of unrelated studies side by side (data: NIAID ChemDB).

Common to all: target-level tests; agent: HIV-1; protein: Protease

Blank or dashed fields: not listed here.

smiles | strain or isolate | setting | read-out | mutations | read by | result
CC(C)(C)NC(=O)[C@@H]1CSCN1C(=O)[C@@H](O)[C@H](Cc1ccccc1)NC(=O)CCC(=O)O | IIIB | - | IC50 | - | - | <5 µM
C[C@H](CC(=O)C[C@@H](C)[C@H]1CC(=O)[C@@]2(C)C3=C(C(=O)C[C@]12C)[C@@]1(C)CC[C@H](O)C(C)(C)[C@@H]1C[C@@H]3O)C(=O)O | - | - | IC50 | - | - | 170 µM
CC(C)C[C@H](NC(=O)[C@@H](NC(=O)CCCCCCCCCCCCCCC(=O)N[C@@H](Cc1ccc(N)cc1)C(=O)N[C@@H](Cc1ccccc1)C(=O)O)C(C)O)C(=O)N[C@@H](Cc1cc(I)c(Oc2cc(I)c(O)c(I)c2)c(I)c1)C(N)=O | - | - | IC50 | - | HPLC | 0.24 µM
O=C1N(c2ccncc2)[C@H](Cc2ccccc2)[C@H](O)CN(Cc2ccccc2)N1c1ccncc1 | - | - | IC50 | - | fluorescence | 0.0041 µM
CC(C)(C)OC(=O)N[C@@H](Cc1ccccc1)[C@H](O)CNC[C@@H](O)[C@H](Cc1ccccc1)NC(=O)C(CCO)C(C)(C)C | - | pH 5.5 | IC50 | - | HPLC | <10 µM
COc1cccc(C[C@H](NC(=O)c2cccc(O)c2C)[C@H](O)C(=O)N2CSC(C)(C)[C@H]2C(=O)NCc2c(C)cccc2C)c1 | - | - | Ki | - | HPLC | 0.000029 µM
CC(C)N(CC(=O)N(CC(=O)NC12NC(=O)C3(O)C4C5CC(C6C5C3C61)C42)Cc1ccccc1)C(=O)CN(C)C(=O)OCc1ccccc1 | - | - | IC50 | - | absorbance | 0.5 µM
CSCC[C@H](NC(=O)CCCCCCCCCCCCCCC(=O)N[C@@H](CC(N)=O)C(=O)N[C@@H](Cc1ccccc1)C(=O)O)C(=O)N[C@@H](CC(C)C)C(=O)N[C@@H](Cc1ccccc1)C(N)=O | - | - | IC50 | - | HPLC | 1.2 µM
CC(C)C[C@H](NC(=O)[C@@H](N)[C@@H](C)O)C(=O)N[C@@H](CC(N)=O)C(=O)N[C@@H](Cc1ccccc1)B(O)O | - | - | Ki | PR-M46I V82F I84V L90M | HPLC | 125 µM
Cc1cc(SC2=C(O)C[C@@](CCc3ccsc3)(C(C)C)OC2=O)c(C(C)(C)C)cc1C | IIIB | - | Ki | - | HPLC | 0.00007 µM
CC(C)c1ccccc1SC1=C(O)CC(CCCCC(=O)Nc2ccccc2)(c2ccccc2)OC1=O | - | pH 4.7 | IC50 | - | HPLC | 0.091 µM
Cc1ccccc1CNC(=O)[C@H]1N(C(=O)[C@@H](O)[C@H](Cc2ccccc2)NC(=O)C(C)C(C)C(=O)O)CSC1(C)C | IIIB | - | IC50 | - | - | <5 µM
CC(C)[C@H](NC(=O)OCc1ccccc1)C(=O)N[C@@H](Cc1ccccc1)[C@@H](O)[C@@H](NCc1ccccc1)C(=O)N[C@H](C(=O)NCc1nc2ccccc2[nH]1)C(C)C | - | - | Ki | - | substrate cleavage | 0.0034 µM
COC(=O)CCCC[C@H]1[C@@H]2[C@H](CS1(=O)=O)N(Cc1cccc(Br)c1)C(=O)N2Cc1cccc(Br)c1 | - | - | Ki | - | HPLC | 4.1 µM
O=C(N[C@@H](Cc1ccccc1)[C@@H](O)C[C@]1(Cc2ccccc2)CCN([C@@H]2CS(=O)(=O)Cc3ccccc32)C1=O)O[C@H]1CCOC1 | - | - | IC50 | - | - | 0.0018 µM
CC(C)C[C@H](NC(=O)[C@@H](NC(=O)CCCCCCCCCCCCCCC(=O)N[C@@H](CC(N)=O)C(=O)N[C@@H](Cc1ccccc1)C(=O)O)C(C)O)C(=O)N[C@@H](Cc1ccccc1)C(N)=O | - | - | Ki | - | HPLC | 3 µM
CC(C)(C)OC(=O)N[C@@H](Cc1ccccc1)[C@H](O)CNC[C@@H](O)[C@H](Cc1ccccc1)NC(=O)COc1cccc2ccccc12 | - | pH 5.5 | IC50 | - | HPLC | ~10 µM
CC(C)[C@H](NC(=O)OCc1ccccc1)C(=O)N[C@@H](Cc1ccccc1)[C@@H](O)[C@H](O)[C@H](Cc1ccccc1)NC(=O)[C@@H](NC(=O)OCc1ccccc1)C(C)C | - | - | IC50 | - | radiometric | 0.0456 µM
O=C1OC(c2ccccc2)(c2ccccc2)CC(O)=C1SCc1ccccc1 | - | - | IC50 | - | substrate cleavage | 0.11 µM
CC(C)(C)OC(=O)N[C@@H](Cc1ccccc1)[C@H](O)CNC[C@@H](O)[C@H](Cc1ccccc1)NC(=O)c1ccc2ccccc2n1 | - | pH 5.5 | IC50 | - | HPLC | >10 µM
CNCC(=O)N(CC(=O)NC12NC(=O)C3(O)C4C5CC(C6C5C3C61)C42)C(C)C | - | - | IC50 | - | absorbance | 10 µM
CC(C)[C@H](NC(=O)OCc1ccccc1)C(=O)N[C@@H](Cc1ccccc1)[C@H](O)[C@@H](CO)[C@H](Cc1ccccc1)NC(=O)[C@H](CC(N)=O)NC(=O)OCc1ccccc1 | - | - | IC50 | - | - | 0.11 µM
CC[C@H](C)[C@H](NC(=O)[C@@H]1CCCN1C[C@@H](O)[C@H](Cc1ccccc1)NC(=O)[C@H](CC(N)=O)NC(=O)[C@H](CC(C)C)NC(C)=O)C(=O)N[C@H](C(=O)OC)C(C)C | - | - | IC50 | - | fluorescence | 0.06 µM
CC(C)(C)OC(=O)N[C@@H](Cc1ccccc1)[C@H](O)CNC[C@@H](O)[C@H](Cc1ccccc1)NC(=O)OC(C)(C)CCCO | - | pH 5.5 | IC50 | - | HPLC | <10 µM
O=C1N(Cc2cccc(Br)c2)[C@H]2[C@H](CS(=O)(=O)[C@H]2CCCCCO)N1Cc1cccc(Br)c1 | - | - | Ki | - | - | 6.9 µM
CC[C@H](C)[C@H](NC(=O)[C@@H](NC(=O)CCCCCCCCCCCCCCC(=O)N[C@@H](CC(N)=O)C(=O)N[C@@H](CC1CCCCC1)C(=O)O)C(C)O)C(=O)N[C@@H](Cc1ccccc1)C(N)=O | - | - | Ki | - | HPLC | 0.143 µM
CC1(C)CC[C@]2(C(=O)O)CC[C@]3(C)C(=CC[C@@H]4[C@@]5(C)C[C@@H](O)[C@H](O)C(C)(C)[C@@H]5CC[C@]43C)[C@@H]2C1 | - | - | IC50 | - | HPLC | <17.9 µg/mL
COc1ccc(C[C@H](NC(=O)c2cccc(O)c2C)[C@H](O)C(=O)N2CSC(C)(C)[C@H]2C(=O)NCc2ccccc2C)cc1 | - | - | Ki | - | HPLC | 0.000031 µM
CC(C)C[C@H](NC(=O)[C@@H](NC(=O)CCCCCCCCCCCCCCC(=O)N[C@@H](CC(N)=O)C(=O)N[C@@H](Cc1ccccc1)C(=O)O)C(C)C)C(=O)N[C@@H](Cc1ccccc1)C(N)=O | - | - | IC50 | - | HPLC | 1.3 µM
CCCCCC1(c2ccccc2)CC(O)=C(Sc2ccccc2C(C)C)C(=O)O1 | - | pH 4.7 | IC50 | - | HPLC | 0.088 µM
C[C@H](CCC=C(CO)CO)[C@H]1CC[C@@]2(C)C3=CC[C@H]4C(C)(C)C(=O)CC[C@]4(C)C3=CC[C@]12C | - | - | IC50 | - | - | 320 µM
Cc1cc(SC2=C(O)CC(CCc3ccc(O)cc3)(C(C)C)OC2=O)c(C(C)(C)C)cc1CO | - | - | IC50 | - | HPLC | 0.00363 µM
C[C@H]1[C@H](C)CC[C@]2(C(=O)O)CC[C@]3(C)C(=CC[C@@H]4[C@@]5(C)CC[C@H](O)C(C)(C)[C@@H]5CC[C@]43C)[C@H]12 | - | - | IC50 | - | HPLC | <17.9 µg/mL
CC(NC(=O)OCc1ccccc1)C(=O)NC(C(=O)NC(Cc1ccccc1)C(=O)NC12NC(=O)C3(O)C4C5CC(C6C5C3C61)C42)C(C)C | - | - | IC50 | - | absorbance | 0.75 µM
CC(C)C[C@H](NC(=O)[C@@H](N)[C@@H](C)O)C(=O)N[C@@H](CC(N)=O)C(=O)N[C@@H](Cc1ccccc1)B1O[C@H](C2CCCCC2)[C@@H](C2CCCCC2)O1 | - | - | Ki | - | HPLC | 80 µM
CC(C)[C@H](NC(=O)c1ccc2ccccc2n1)C(=O)N[C@@H](Cc1ccccc1)[C@H](O)CN1CC[C@@H](OCc2ccncc2)C[C@H]1C(=O)NC(C)(C)C | IIIB | - | Ki | - | fluorescence | 0.000031 µM
CC[C@H](C)[C@H](NC(=O)[C@@H]1CCCN1C[C@@H](O)[C@H](Cc1ccccc1)NC(=O)[C@H](CC(N)=O)NC(=O)[C@H](CC(C)C)NC(=O)[C@H](CO)NC(C)=O)C(=O)N[C@H](C(=O)OC)C(C)C | - | - | IC50 | - | fluorescence | 0.022 µM
C[C@@H]1CC[C@]2(C(=O)O)CC[C@]3(C)C(=CC[C@@H]4[C@@]5(C)CC[C@@H](O)C(C)(C)[C@@H]5CC[C@]43C)[C@@H]2[C@]1(C)O | - | - | IC50 | - | HPLC | >17.9 µg/mL
CC(C)c1ccccc1SC1=C(O)CC(CCCCC(=O)N2CCN(C(=O)OC(C)(C)C)CC2)(c2ccccc2)OC1=O | - | pH 4.7 | IC50 | - | HPLC | 0.127 µM
C[C@H](CC[C@H](O)C(C)(O)CO)[C@H]1CC[C@@]2(C)C3=CCC4C(C)(C)[C@@H](O)CC[C@]4(C)C3=CC[C@]12C | - | - | IC50 | - | - | 230 µM
CC(C)c1ccccc1SC1=C(O)CC(CCCCC(=O)N2CCNCC2)(c2ccccc2)OC1=O | - | pH 4.7 | IC50 | - | HPLC | 0.234 µM
COc1ccc(C[C@H](NC(=O)c2cccc(O)c2C)[C@H](O)C(=O)N2CSC(C)(C)[C@H]2C(=O)NCc2c(C)cccc2C)cc1 | - | - | Ki | - | HPLC | 0.000029 µM
CC(C)(C)OC(=O)N[C@@H](Cc1ccccc1)[C@H](O)CNC[C@@H](O)[C@H](Cc1ccc(OCCc2ccccn2)cc1)NC(=O)OC(C)(C)C | - | pH 5.5 | IC50 | - | HPLC | <10 µM
CC(C)[C@H](NC(=O)OCc1ccccc1)C(=O)NN(Cc1ccc(Br)cc1)C[C@@](O)(Cc1ccccc1)C(=O)N[C@H]1c2ccccc2C[C@H]1O | - | - | Ki | - | fluorescence | 0.011–0.05 µM
CC[C@H](C)[C@H](NC(=O)[C@H](Cc1ccccc1)N[C@H](O)CC(=O)[C@H](Cc1ccccc1)NC(=O)[C@@H](NC(=O)[C@H](CC(C)C)NC(C)=O)C(C)C)C(=O)N[C@H](C(N)=O)C(C)C | - | - | IC50 | - | fluorescence | 0.005 µM
C[C@H](CC[C@H](O)C(C)(O)CO)[C@H]1CC[C@@]2(C)C3=CC[C@H]4C(C)(C)C(=O)CC[C@]4(C)C3=CC[C@]12C | - | - | IC50 | - | - | >1000 µM
CC(C)C[C@H](NC(=O)[C@@H](NC(=O)CCCCCCCCCCCCCCC(=O)N[C@@H](CC(N)=O)C(=O)N[C@@H](Cc1cccc2ccccc12)C(=O)O)C(C)O)C(=O)N[C@H](C(N)=O)C1CCCCC1 | - | - | IC50 | - | HPLC | 0.31 µM
Cc1ccccc1CNC(=O)[C@H]1N(C(=O)[C@@H](O)[C@H](Cc2ccccc2)NC(=O)CC(C)(C)C(=O)O)CSC1(C)C | IIIB | - | IC50 | - | - | <5 µM
Cc1cc(-c2ccc(N=Nc3ccc4c(S(=O)(=O)O)cc(S(=O)(=O)O)c(N)c4c3O)c(C)c2)ccc1N=Nc1ccc2c(S(=O)(=O)O)cc(S(=O)(=O)O)c(N)c2c1O | - | - | IC50 | - | - | 0.48 µM
COc1ccc(CN2C[C@@H](O)[C@@H](Cc3ccccc3)N(Cc3cccc(N)c3)C(=O)N2Cc2cccc(N)c2)cc1 | - | - | IC50 | - | fluorescence | 0.001 µM
Cc1ccccc1CNC(=O)[C@H]1N(C(=O)[C@@H](O)[C@H](Cc2ccccc2)NC(=O)c2cccc(O)c2C)CSC1(C)C | - | - | Ki | - | HPLC | 0.000035 µM
CC(C)c1ccccc1SC1=C(O)CC(CCCC(=O)N2CCOCC2)(c2ccccc2)OC1=O | - | pH 4.7 | IC50 | - | HPLC | 0.186 µM

A second listing of 4 rows from above:

smiles	strain or isolate	setting	read-out	mutations	read by	result
CC[C@H](C)[C@H](NC(=O)[C@H](Cc1ccccc1)N[C@H](O)CC(=O)[C@H](Cc1ccccc1)NC(=O)[C@@H](NC(=O)[C@H](CC(C)C)NC(C)=O)C(C)C)C(=O)N[C@H](C(N)=O)C(C)C	-	-	IC50	-	fluorescence	0.005 µM
CC(C)C[C@H](NC(=O)[C@@H](NC(=O)CCCCCCCCCCCCCCC(=O)N[C@@H](CC(N)=O)C(=O)N[C@@H](Cc1cccc2ccccc12)C(=O)O)C(C)O)C(=O)N[C@H](C(N)=O)C1CCCCC1	-	-	IC50	-	HPLC	0.31 µM
CC(C)C[C@H](NC(=O)[C@@H](NC(=O)CCCCCCCCCCCCCCC(=O)N[C@@H](Cc1ccc(N)cc1)C(=O)N[C@@H](Cc1ccccc1)C(=O)O)C(C)O)C(=O)N[C@@H](Cc1cc(I)c(Oc2cc(I)c(O)c(I)c2)c(I)c1)C(N)=O	-	-	IC50	-	HPLC	0.24 µM
Cc1cc(SC2=C(O)C[C@@](CCc3ccsc3)(C(C)C)OC2=O)c(C(C)(C)C)cc1C	IIIB	-	Ki	-	HPLC	0.00007 µM

ICn is the concentration giving n% inhibition. a–b is a range or a potency band. Conditions beyond the fields shown may differ between rows.